# Results taken from US9924715B2, “Zinc or copper (II) salt and use thereof as a biocide” (LABORATORIYA BIO ZET, LLC, priority 2014, dated 2018).
# System: human immunodeficience virus (HIV)
# Experiment: Virucidal activity, suspension test in vitro (MU 3.52431-08)
# Assay type: cell-based
# Source text: Virucidal activity of copper acrylate-propionate obtained as described in example 4 was investigated by analogy with examples 14-19.
# Virucidal activity of zinc methacrylate-myristate obtained as described in example 11 was investigated by analogy with examples 14-19.
substance,measurement,setting,value
Zinc methacrylate-myristate,"Degree of virus inhibition, lg TCID50","biocide 0.01 % in aqueous solution, exposure 30 min",0.5 lg TCID50
same,"Degree of virus inhibition, lg TCID50","biocide 0.01 %, exposure 60 min",1.5 lg TCID50
same,"Degree of virus inhibition, lg TCID50","biocide 0.05 %, exposure 30 min",3.0 lg TCID50
same,"Degree of virus inhibition, lg TCID50","biocide 0.05 %, exposure 60 min",4.5 lg TCID50
same,"Degree of virus inhibition, lg TCID50","biocide 0.1 %, exposure 30 min",5.5 lg TCID50
same,"Degree of virus inhibition, lg TCID50","biocide 0.1 %, exposure 60 min",6.5 lg TCID50
